Pooled drug test results. Numbers come from NIAID ChemDB, via PubChem.

Common to all: target-level tests

a–b is a range or a potency band. Percent inhibition refers to the dose given; in toxicity tests it is the harm to the cells. Lines come from different laboratories, so protocols vary. ICn: concentration for n% inhibition. Blank or dashed fields: not listed here.

compound	method	read-out	target	dose	strain or isolate	agent	result
CC[C@H](C)[C@H](NC(=O)[C@H](CC(C)C)NC(=O)[C@@H](CCC(=O)O)NC(=O)[C@H](CC(=O)O)NC(C)=O)C(=O)N[C@H](C(=O)N[C@@H](CS)C(=O)O)C1CCCCC1	-	IC50	NS3/NS4A serine protease	-	-	Hepatitis C virus	20.5 µM
COc1nc(Nc2ccc3[nH]ncc3c2)nc(NC2CC2)n1	-	IC50	DNA polymerase	-	-	Hepatitis B virus	0.01–0.1 µg/mL
CC(=O)N[C@H](C(=O)N[C@H](C(=O)N1C[C@H](Oc2ccncc2)CC1C(=O)NC1(C(=O)O)CC1)C(C)C)C1CCCCC1	-	IC50	NS3 protease	-	-	Hepatitis C virus	170 µM
CON1C(Nc2ccc3cn[nH]c3c2)=NC(NC(C)C)=NC1NC(C)C	-	inhibition	DNA polymerase	1 µg/mL	-	Hepatitis B virus	65%
C=CCC(NC(=O)C(=O)C(=O)C(CC=C)NC(=O)[C@H](CC1CCCCC1)NC(=O)[C@@H](NC(=O)[C@H](CC(C)C)NC(=O)[C@@H](CCC(=O)O)NC(=O)[C@H](CC(=O)O)NC(C)=O)[C@@H](C)CC)C(=O)O	-	IC50	NS3/NS4A serine protease	-	-	Hepatitis C virus	0.00088 µM
CC[C@@H](C=O)NC(=O)[C@@H]1C[C@@H](NC(=O)C(=O)c2ccccc2)CN1C(=O)[C@@H](NC(=O)[C@@H](NC(=O)c1cnccn1)C(C)C)C(C)C	-	Ki	NS3 protease	-	-	Hepatitis C virus	1–100 µM
C=CCC(NC(=O)[C@H](C)NC(=O)[C@@H](NC(=O)[C@@H](NC(=O)[C@H](CC(=O)O)NC(C)=O)C(C)C)C(C)C)C(=O)C(=O)C(=O)N[C@@H](C)C(=O)O	-	IC50	NS3/NS4A serine protease	-	-	Hepatitis C virus	4 µM
C=CC1C[C@@]1(NC(=O)[C@@H]1C[C@@H](Oc2cc(-c3ccccn3)nc3cc(OC)ccc23)CN1C(=O)[C@@H](NC(=O)OC(C)(C)C)C(C)(C)C)C(=O)NS(=O)(=O)C1(Cc2ccccc2)CC1	-	IC50	NS3/NS4A protease	-	BMS	Hepatitis C virus	<0.05 µM
C=CC1CC1(NC(=O)[C@@H]1C[C@@H](OC(=O)Nc2onc(C)c2C)CN1C(=O)[C@@H](NC(=O)OC(C)(C)C)C(C)(C)C)C(=O)NS(=O)(=O)C1CC1	-	IC50	NS3/NS4A protease	-	BMS/H77C/J416S	Hepatitis C virus	0.1–1 µM
CNC(=O)c1c(-c2ccc(F)cc2)oc2cc(N3CCOCC3)c(OCc3ccncc3)cc12	-	IC50	Nonstructural protein 5B	-	-	Hepatitis C virus	≤0.5 µM
C=CC1CC1(NC(=O)[C@@H]1C[C@@H](OC(=O)Nc2ccccc2OC)CN1C(=O)[C@@H](NC(=O)OC(C)(C)C)C(C)(C)C)C(=O)NS(=O)(=O)C1CC1	-	IC50	NS3/NS4A protease	-	BMS/H77C/J416S	Hepatitis C virus	<0.1 µM
CCC(NC(=O)[C@H](CC1CCCCC1)NC(=O)[C@@H](NC(C)=O)[C@@H](C)CC)C(=O)C(=O)C(=O)N[C@@H](Cc1ccc(OC)cc1)C(=O)O	-	IC50	NS3/NS4A serine protease	-	-	Hepatitis C virus	8.4 µM
CC(C)Nc1cccnc1N1CCN(C(=O)c2ccc(C(=O)NCCCn3ccnc3)cn2)CC1	-	IC50	Reverse transcriptase	-	-	Hepatitis B virus	0.001 µg/mL
COc1nc(NCCN2CCOCC2)nc(Nc2ccc3cn[nH]c3c2)n1	-	inhibition	DNA polymerase	0.01 µg/mL	-	Hepatitis B virus	49%
C=CC1CC1(NC(=O)[C@@H]1C[C@@H](OC(=O)Nc2ccccc2F)CN1C(=O)[C@@H](NC(=O)OC(C)(C)C)C(C)(C)C)C(=O)NS(=O)(=O)C1CC1	-	IC50	NS3/NS4A protease	-	BMS/H77C/J416S	Hepatitis C virus	0.1–1 µM
C=CCC(NC(=O)C(=O)C(=O)C(CC=C)NC(=O)[C@H](CC1CCCCC1)NC(=O)[C@@H](NC(=O)[C@H](CC(C)C)NN1CCCCC1)[C@@H](C)CC)C(=O)O	-	IC50	NS3/NS4A serine protease	-	-	Hepatitis C virus	0.05 µM
CC(C)CNc1cccnc1N1CCN(C(=O)c2ccc(C(=O)NC(C)(C)CO)cn2)CC1	-	IC50	Reverse transcriptase	-	-	Hepatitis B virus	0.001 µg/mL
C=CC1CC1(NC(=O)[C@@H]1C[C@@H](OC(=O)Nc2cc(C(F)(F)F)ccc2N2CCC(C(F)(F)F)CC2)CN1C(=O)[C@@H](NC(=O)OC(C)(C)C)C(C)(C)C)C(=O)NS(=O)(=O)C1CC1	-	IC50	NS3/NS4A protease	-	BMS/H77C/J416S	Hepatitis C virus	<0.1 µM
O=C(N[C@@H](Cc1ccccc1)C(=O)O)c1cnn2c(C3CCCCC3)c(-c3ccc(OCc4ccccc4)cc3)cnc12	-	IC50	RNA-dependent RNA polymerase	-	-	Hepatitis C virus	1–10 µM
C=C[C@H]1C[C@@]1(NC(=O)[C@@H]1C[C@@H](Oc2cc(-c3ccccc3)nc3cc(OC)ccc23)CN1C(=O)[C@@H](NC(=O)OC(C)(C)C)C(C)(C)C)C(=O)NS(=O)(=O)C1(Cc2ncoc2-c2ccccc2)CC1	-	IC50	NS3/NS4A protease	-	BMS	Hepatitis C virus	<0.05 µM
COC(CNC(=O)c1ccc(C(=O)N2CCN(c3ncccc3NC(C)C)CC2)nc1)OC	-	IC50	Reverse transcriptase	-	-	Hepatitis B virus	0.005 µg/mL
COc1nc(NCCN(C)C)nc(Nc2ccc3[nH]ncc3c2)n1	-	inhibition	DNA polymerase	0.01 µg/mL	-	Hepatitis B virus	31%
O=C(O)C(=O)Nc1cnn2c(C3CCCCC3)c(-c3ccc(OCc4ccccc4)cc3)cnc12	-	IC50	RNA-dependent RNA polymerase	-	-	Hepatitis C virus	1–10 µM
C=CC1CC1(NC(=O)[C@@H]1C[C@@H](OC(=O)Nc2cccc(C(=O)OC)c2)CN1C(=O)[C@@H](NC(=O)OC(C)(C)C)C(C)(C)C)C(=O)NS(=O)(=O)C1CC1	-	IC50	NS3/NS4A protease	-	BMS/H77C/J416S	Hepatitis C virus	<0.1 µM
CC(=O)N[C@H](C(=O)N[C@H](C(=O)N1C[C@H](Sc2ccc(Br)cc2)CC1C(=O)NC1(C(=O)O)CC1)C(C)C)C1CCCCC1	-	IC50	NS3 protease	-	-	Hepatitis C virus	40 µM
O=S(=O)(Cc1ccccc1)Nc1cnn2c(C3CCCCC3)c(-c3ccc(OCc4ccccc4)cc3)cnc12	-	IC50	RNA-dependent RNA polymerase	-	-	Hepatitis C virus	>10 µM
CC[C@@H](C=O)NC(=O)[C@@H]1C[C@@H](OCc2ccccc2)CN1C(=O)[C@@H](NC(=O)[C@H](Cc1ccccc1)NC(=O)c1cnccn1)C(C)C	-	Ki	NS3 protease	-	-	Hepatitis C virus	1–100 µM
C=CC1CC1(NC(=O)[C@@H]1C[C@@H](OC(=O)Nc2cc(Cl)ccc2OC)CN1C(=O)[C@@H](NC(=O)OC(C)(C)C)C(C)(C)C)C(=O)NS(=O)(=O)C1CC1	-	IC50	NS3/NS4A protease	-	BMS/H77C/J416S	Hepatitis C virus	<0.1 µM
COCCNC(=O)c1ccc(C(=O)N2CCN(c3ncccc3NCC(C)C)CC2)nc1	-	IC50	Reverse transcriptase	-	-	Hepatitis B virus	0.007 µg/mL
C=CC1CC1(NC(=O)[C@@H]1C[C@@H](Oc2cc(-c3ccccc3)nc3cc(OC)ccc23)CN1C(=O)[C@@H](NC(=O)OC(C)(C)C)C(C)(C)C)C(=O)NS(=O)(=O)C1(C(=O)c2ccccc2)CC1	-	IC50	NS3/NS4A protease	-	BMS	Hepatitis C virus	0.05–0.5 µM
C=CC1CC1(NC(=O)[C@@H]1C[C@@H](OC(=O)Nc2c(Cl)cccc2Cl)CN1C(=O)[C@@H](NC(=O)OC(C)(C)C)C(C)(C)C)C(=O)NS(=O)(=O)C1CC1	-	IC50	NS3/NS4A protease	-	BMS/H77C/J416S	Hepatitis C virus	0.1–1 µM
CC(C)CNc1cccnc1N1CCN(C(=O)c2ccc(C(=O)NC(C)C)cn2)CC1	-	IC50	Reverse transcriptase	-	-	Hepatitis B virus	0.005 µg/mL
COc1nc(Nc2ccc3[nH]ncc3c2)nc(N2CCN(C(=O)c3cccnc3)CC2)n1	-	IC50	DNA polymerase	-	-	Hepatitis B virus	0.1–1 µg/mL
CNC(=O)c1c(-c2ccc(F)cc2)oc2cc(C3CCCN3S(C)(=O)=O)c(OC(C)C)cc12	-	IC50	Nonstructural protein 5B	-	-	Hepatitis C virus	≤0.5 µM
Cc1ccn(NC(=O)c2ccc(C(=O)N3CCN(c4ncccc4NC(C)C)CC3)nc2)n1	-	IC50	Reverse transcriptase	-	-	Hepatitis B virus	0.124 µg/mL
CNC(=O)c1c(-c2ccc(F)cc2)oc2cc(N(C)S(C)(=O)=O)c(C(N)=O)c(OC)c12	-	IC50	Nonstructural protein 5B	-	-	Hepatitis C virus	≤0.5 µM
Cc1cc(C(F)(F)F)n2nc(C(=O)O)cc2n1	-	IC50	RNA-dependent RNA polymerase	-	-	Hepatitis C virus	>10 µM
O=C(/C=C/c1ccc(O)c(O)c1)O[C@H]1[C@H](O)C[C@](O)(C(=O)O)C[C@H]1OC(=O)/C=C/c1ccc(O)c(O)c1	ELISA	IC50	HBeAg	-	HepG 2.2.15	Hepatitis B virus	50.06 µg/mL
CC(=O)Nc1cccc(-c2cccc(O[C@@H]3CC(C(=O)NC4(C(=O)O)CC4)N(C(=O)[C@@H](NC(=O)[C@@H](NC(C)=O)C4CCCCC4)C(C)C)C3)c2)c1	-	IC50	NS3 protease	-	-	Hepatitis C virus	6 µM
C=C[C@H]1C[C@@]1(NC(=O)[C@@H]1C[C@@H](Oc2cc(-c3ccccc3)nc3cc(OC)ccc23)CN1C(=O)[C@@H](NC(=O)OC(C)(C)C)C(C)(C)C)C(=O)NS(=O)(=O)C1(CC2CC2)CC1	-	IC50	NS3/NS4A protease	-	BMS	Hepatitis C virus	<0.05 µM
Clc1ccc(Oc2cccc(-c3cnc4c(-c5nn[nH]n5)cnn4c3C3CCCCC3)c2)cc1	-	IC50	RNA-dependent RNA polymerase	-	-	Hepatitis C virus	1–10 µM
C=CC1CC1(NC(=O)[C@@H]1C[C@@H](OC(=O)NCCc2ccccc2)CN1C(=O)[C@@H](NC(=O)OC(C)(C)C)C(C)(C)C)C(=O)NS(=O)(=O)C1CC1	-	IC50	NS3/NS4A protease	-	BMS/H77C/J416S	Hepatitis C virus	0.1–1 µM
CC(C)Nc1cccnc1N1CCN(C(=O)c2ccc(C(=O)NC(C)(C)C)cn2)CC1	-	IC50	Reverse transcriptase	-	-	Hepatitis B virus	0.002 µg/mL
CC[C@H](NC(=O)[C@H](CC(C)C)NC(=O)[C@@H](NC(=O)[C@@H](NC(=O)c1cnccn1)C(C)C)C(C)C)C(=O)C(=O)N[C@@H](CC)c1ccccc1	-	Ki	NS3 protease	-	-	Hepatitis C virus	>100 µM
C=C[C@H]1C[C@@]1(NC(=O)[C@@H]1C[C@@H](Oc2cc(-c3ccccc3)nc3cc(OC)ccc23)CN1C(=O)[C@@H](NC(=O)OC(C)(C)C)C(C)(C)C)C(=O)NS(=O)(=O)C1(CC(C)C)CC1	-	IC50	NS3/NS4A protease	-	BMS	Hepatitis C virus	<0.05 µM
CC(C)CNc1cccnc1N1CCN(C(=O)c2ccc(C(=O)NCCCn3ccnc3)cn2)CC1	-	IC50	Reverse transcriptase	-	-	Hepatitis B virus	0.002 µg/mL
CNC(=O)c1c(-c2ccc(F)cc2)oc2cc(C#N)c(OC(C)C)cc12	-	IC50	Nonstructural protein 5B	-	-	Hepatitis C virus	≤0.5 µM
COc1nc(Nc2ccc3[nH]ncc3c2)nc(N2CCN(CCO)CC2)n1	-	inhibition	DNA polymerase	0.1 µg/mL	-	Hepatitis B virus	26%
CC(=O)N[C@H](C(=O)N[C@H](C(=O)N1C[C@H](Sc2nc3ccccc3s2)CC1C(=O)NC1(C(=O)O)CC1)C(C)C)C1CCCCC1	-	IC50	NS3 protease	-	-	Hepatitis C virus	20 µM
O=C(N[C@@H](Cc1ccccc1)C(=O)O)c1cc2nc(-c3ccc(Cl)cc3)cc(-c3ccc(Oc4ccccc4)cc3)n2n1	-	IC50	RNA-dependent RNA polymerase	-	-	Hepatitis C virus	>10 µM
CC[C@@H](C=O)NC(=O)[C@@H]1C[C@@H](OCc2noc(-c3ccc(OC)cc3)n2)CN1C(=O)[C@@H](NC(=O)[C@@H](NC(=O)c1cnccn1)C(C)C)C(C)C	-	Ki	NS3 protease	-	-	Hepatitis C virus	1–100 µM
COc1cc(COc2cccc(-c3cnc4c(-c5nn[nH]n5)cnn4c3C3CCCCC3)c2)cc(OC)c1	-	IC50	RNA-dependent RNA polymerase	-	-	Hepatitis C virus	1–10 µM
COc1nc(Nc2ccc3cn[nH]c3c2)nc(N2CCCC2)n1	-	inhibition	DNA polymerase	0.1 µg/mL	-	Hepatitis B virus	30%

Repeating the first 4 entries:

compound | method | read-out | target | dose | strain or isolate | agent | result
CC[C@H](C)[C@H](NC(=O)[C@H](CC(C)C)NC(=O)[C@@H](CCC(=O)O)NC(=O)[C@H](CC(=O)O)NC(C)=O)C(=O)N[C@H](C(=O)N[C@@H](CS)C(=O)O)C1CCCCC1 | - | IC50 | NS3/NS4A serine protease | - | - | Hepatitis C virus | 20.5 µM
COc1nc(Nc2ccc3[nH]ncc3c2)nc(NC2CC2)n1 | - | IC50 | DNA polymerase | - | - | Hepatitis B virus | 0.01–0.1 µg/mL
CC(=O)N[C@H](C(=O)N[C@H](C(=O)N1C[C@H](Oc2ccncc2)CC1C(=O)NC1(C(=O)O)CC1)C(C)C)C1CCCCC1 | - | IC50 | NS3 protease | - | - | Hepatitis C virus | 170 µM
CON1C(Nc2ccc3cn[nH]c3c2)=NC(NC(C)C)=NC1NC(C)C | - | inhibition | DNA polymerase | 1 µg/mL | - | Hepatitis B virus | 65%